PSTVd stem 26 mutant pool in Nicotiana benthamiana

Values reported by Wu et al. 2024 (doi:10.1371/journal.ppat.1012142).

PSTVd intermediate strain, stem 26: wild type AGGGUACCCU, pool pattern AGGGUNNCNN; upper and lower strand joined, each 5' to 3', the first 5 letters being the upper strand.

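A pool of all variants was put on leaves of three Nicotiana benthamiana plants. Progeny were sequenced from the inoculated region (day 5), the margin of the inoculated leaf (day 10) and systemic leaves (day 12).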

Numbers give reads per thousand; 0 = not seen among the reads, higher = more abundant. Each value is the mean of three plants. "Pool" is the share in the plasmid pool used as inoculum, on the same scale. The inoculated region was read from the minus strand, the other sites from the plus strand. Samples held 23,251 to 70,159 reads, so the smallest values rest on one or two reads.

| sequence | pool | inoculated region | leaf margin | systemic leaves |
|---|---|---|---|---|
| AGGGAACCCG | 0.0329 | 0.00788 | 0.00992 | 0.00551 |
| AGGGACUCAC | 0.0329 | 0.00875 | 0 | 0 |
| AGGGCCACAU | 0.0329 | 0 | 0 | 0 |
| AGGGGACCCU | 0.0329 | 0.0588 | 0.523 | 0.184 |
| AGGGUAACCA | 3.90 | 2.03 | 0.104 | 0.0898 |
| AGGGUAACCC | 0.0493 | 0.251 | 0.00871 | 0.00475 |
| AGGGUACCCG | 6.02 | 3.48 | 0.563 | 0.245 |
| AGGGUACUCU | 0.0658 | 0.0555 | 0.131 | 0.155 |
| AGGGUAGCAG | 4.00 | 1.93 | 0.0285 | 0.0110 |
| AGGGUAGCCA | 2.94 | 0.798 | 0.00992 | 0.00475 |
| AGGGUAUCCA | 3.06 | 0.803 | 0.00742 | 0 |
| AGGGUAUCGA | 3.17 | 1.12 | 0.0148 | 0.589 |
| AGGGUCACGA | 2.89 | 0.875 | 0 | 0 |
| AGGGUCACUC | 3.13 | 2.25 | 0.688 | 0.275 |
| AGGGUCCCAA | 2.66 | 0.655 | 0.0173 | 0 |
| AGGGUCCCCU | 2.70 | 0.956 | 0.119 | 0.0432 |
| AGGGUCCCGA | 3.67 | 1.34 | 0 | 0 |
| AGGGUCCCUC | 2.93 | 2.24 | 0.688 | 0 |
| AGGGUCGCAG | 3.54 | 1.35 | 0 | 0.0117 |
| AGGGUCGCCG | 3.55 | 1.07 | 0 | 0 |
| AGGGUCGCUA | 3.01 | 0.699 | 0.0148 | 0 |
| AGGGUCGCUU | 4.31 | 1.80 | 1.27 | 0.00623 |
| AGGGUCUACC | 0.0493 | 1.50 | 0.544 | 0.670 |
| AGGGUCUACU | 0.0329 | 0 | 0 | 0 |
| AGGGUCUCGA | 2.93 | 0.769 | 0 | 0 |
| AGGGUCUCGC | 4.03 | 4.57 | 0.591 | 0.223 |
| AGGGUCUCUG | 3.88 | 3.04 | 0.649 | 0.0165 |
| AGGGUCUCUU | 3.08 | 2.60 | 0.599 | 0.00551 |
| AGGGUGACCU | 4.72 | 2.48 | 0.0260 | 0.0125 |
| AGGGUGAGCC | 0.0329 | 1.27 | 0.411 | 0 |
| AGGGUGCACA | 0.0493 | 0.00788 | 0.00742 | 0 |
| AGGGUGCCCC | 2.76 | 2.13 | 0.708 | 0 |
| AGGGUGCCGG | 5.94 | 5.85 | 0.0174 | 0.0608 |
| AGGGUGCCGU | 3.24 | 1.08 | 0.00992 | 0 |
| AGGGUGCCUA | 3.13 | 2.06 | 0.698 | 0 |
| AGGGUGCGCC | 0.0164 | 0 | 0 | 0 |
| AGGGUGGCGG | 2.38 | 0.856 | 0 | 0 |
| AGGGUGGCUU | 3.54 | 2.09 | 0.602 | 0.303 |
| AGGGUGGGCC | 0.0329 | 1.44 | 0.393 | 0 |
| AGGGUGGGCG | 0.0329 | 0.00788 | 0.00992 | 0 |
| AGGGUGUACG | 0.0493 | 1.17 | 0.767 | 0 |
| AGGGUGUCAG | 6.27 | 4.42 | 0.651 | 0.00551 |
| AGGGUGUCAU | 2.63 | 1.91 | 0.646 | 0 |
| AGGGUGUCUG | 2.98 | 1.85 | 1.24 | 0.696 |
| AGGGUUAACC | 0.0329 | 0.0166 | 0 | 0.00551 |
| AGGGUUACUU | 3.80 | 1.45 | 0.0298 | 0.00950 |
| AGGGUUAGCU | 0.0329 | 0.00788 | 0 | 0 |
| AGGGUUCCAU | 2.78 | 0.991 | 0.0148 | 0 |
| AGGGUUCCCG | 3.37 | 0.909 | 0 | 0 |
| AGGGUUCCUA | 2.98 | 0.964 | 0 | 0 |
| AGGGUUGACC | 0.0329 | 0.00788 | 0 | 0 |
| AGGGUUGCAC | 3.62 | 1.02 | 0.00871 | 0 |
| AGGGUUGCGC | 5.33 | 2.25 | 0.00742 | 0.149 |
| AGGGUUGCUA | 5.89 | 1.84 | 0.00742 | 0.0285 |
| AGGGUUUCCU | 4.33 | 1.89 | 0.00742 | 0.0143 |
| AGGUUUUCCA | 0.0329 | 0 | 0 | 0 |
| GGGGUGACUU | 0.0493 | 0 | 0 | 0 |
| GGUUUAACUU | 0.806 | 0.466 | 0.0992 | 0 |

Sequences that differ at fixed positions probably stem from PCR or sequencing errors, and defective variants can be carried along by functional ones. For reference, wild type rose from 44.9 per thousand in the pool to 297, 323, 447 (inoculated region), 793, 829, 846 (leaf margin) and 974, 853, 877 (systemic leaves).